From article PMC10187092 (Emerging Microbes & Infections, 2023)

Molecular target: SARS-CoV-2 3CLpro (wild-type) (Severe acute respiratory syndrome coronavirus 2, UniProt P0DTD1)

With PF-00835231 the “signal of low concentrations randomly interpolated in screening” value was “noticeable positive signal”.
